# This is a selection; strong and weak results do not stand in their true shares. The source made the active and inactive calls. No stated cut-off is given here; in the data, active means inhibition mostly above about 83% (no sharp cut-off); inactive means mostly below about 52%.
# Test system: acyl-homoserine lactone synthase BmaI1 (Burkholderia mallei ATCC 23344)
# Experiment: BmaI1 acyl-homoserine lactone synthase inhibition – biochemical, fluorescence intensity, with counterscreen (AID 720554)
# Settings: BmaI1 enzyme assay, stronger effect = higher value, concentration not given here
row,Compound,inhibition
1,Cc1ccc(C(=O)NCC2(N(C)C)CCCCC2)o1,inactive: 6%
2,Cc1cnc(C(=O)NCC2(N3CCCCC3)CCCCC2)cn1,inactive: 6.5%
3,O=C(NCC1(N2CCOCC2)CCCCC1)c1ccc2nc[nH]c2c1,inactive: 10%
4,CN(C)c1ccc(C(=O)NCC2(N3CCCCC3)CCCCC2)cc1,inactive: 11%
5,O=C(NCC1(N2CCOCC2)CCCCC1)c1cc2ccccc2cc1O,inactive: 29%

# Source: PubChem BioAssay AID720554 (ICCB-Longwood Screening Facility, Harvard Medical School, 2013)
